The supplement of paper PMC12350171
What follows is the remainder of the data, with few or none of the hits.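 The calls were made as follows: active = normalised median growth AUC below 0.1 of DMSO control; inactive = AUC 0.1 or higher.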

System: S. enterica typhimurium tolC KO
Experiment: growth AUC normalised to DMSO control (median) (fraction of control); higher = less growth inhibition, active = hit call of the paper
Conditions: 20 µM
Summary of the method: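 Strains were passaged twice overnight without oxygen, then grown in mGAM in 96-well plates with each approved-drug library compound at 20 μM and 1% DMSO, starting at OD578 0.01. OD578 was read hourly for 24 h inside an anaerobic incubator. Curves were truncated at entry into stationary phase, and the trapezoidal-rule area under the curve was normalised to same-plate vehicle wells. The value is the median across three biological replicates.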
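Also: active when median AUC fell below 0.1.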

Q: With COc1cc(Br)c(C[N+]2(CCOCCC3CCC4CC3C4(C)C)CCOCC2)cc1OC (stereo unspecified) [Pinaverium bromide] as the molecule, how does the “growth AUC normalised to DMSO control” value read?
A: inactive: 0.573
